Results of unrelated studies side by side (data: NIAID ChemDB).

All rows: host cell toxicity; cell line: HEK 293; read-out: CC50

CCn: concentration that lowers growth or viability of the cells by n%. Rows are shuffled and stem from different studies. Blank or dashed fields: not listed here.

smiles	read by	value
CC(C)N1CC[C@H](OC(c2ccccc2)c2ccccc2)C[C@@H]1c1ccccc1		69.38 µg/mL
O=C(N[C@H](CO)Cc1ccccc1)N(Cc1cccc(O)c1)N1CCOCC1	MTT	23.1 µM
N=C(N)c1ccc(OCc2cccc(COc3ccc(C(=N)N)cc3)c2)cc1	absorbance	>100 µM
CC(C)N(Cc1ccccc1)C(=O)c1ccc(-c2ccc3c(c2)OCO3)cc1		<13.5 µM
CCc1ccc(CCN=C2NC(=O)/C(=C/c3ccc(-c4ccc(C(=O)O)c(O)c4)o3)S2)cc1	MTT	3.4 µM
O=C(NCc1ccccc1)c1ccc(-c2ccc3c(c2)OCO3)cc1		>20 µM
COCCN1CCn2cc(C(=O)NCc3ccc(F)cc3F)c(=O)c(O)c2C1=O	luminescence	0.1385 µM
CCOC(=O)c1cc(O)c(O)c(O)c1	MTS	>200 µM
O=C(N(Cc1ccccc1)[C@H](CO)Cc1ccccc1)N(Cc1ccccc1)N1CCCCC1	MTT	12.8 µM
CCOC(=O)CCCCOc1ccccc1NC(C)C		>20 µM
CC(C)CCNc1nc2cc3ccccc3cc2nc1NCCC(C)C	fluorescence	>20 µM
O=C(O)CS(=O)c1ccc2c3c(cccc13)C(=O)c1ccccc1-2	fluorescence	>50 µM
CC(C)[C@@H]1CC[C@]2(C=O)CC[C@]3(C)[C@H](CC[C@@H]4[C@@]5(C)CC[C@H](OC(=O)CC(C)(C)C(=O)O)C(C)(C)[C@@H]5CC[C@]43C)[C@@H]12		>300 µM
O=C1/C(=C/c2ccc(-c3cc(C(F)(F)F)ccc3Cl)o2)SC(=S)N1Cc1ccc(Cl)cc1	MTT	4.2 µM
CC(C)N(Cc1cccc(OCCCCCC(=O)OC(=O)O)c1)C(=O)c1ccc(-c2ccc3cc[nH]c3c2)cc1		>20 µM
CN[C@@H](CC1=CN=c2c(O)c3c(c(O)c21)=NC=CS3(=O)=O)C(=O)O		>80 µM
C=C(C)[C@@H]1CC[C@]2(C=O)CC[C@]3(C)[C@H](CC[C@@H]4[C@@]5(C)CC[C@H](OC(=O)CC(C)(C)C(=O)O)C(C)(C)[C@@H]5CC[C@]43C)[C@@H]12		>300 µM
COc1c(C)c(O)c(C)c(O)c1C(=O)/C=C/c1ccccc1	sulforhodamine	2.39 µg/mL
Brc1c2ccccc2c(Br)c2nc(-c3ccco3)c(-c3ccco3)nc12	fluorescence	>20 µM
CCOC(=O)CCCCCOc1cccc(CN(C(=O)c2ccc(-c3cccnc3)cc2)C(C)C)c1		>20 µM
CN(C)N(Cc1ccccc1)C(=O)N[C@H](CO)Cc1ccccc1	MTT	57.2 µM
CC(C)N(Cc1cccc(OCCCCCC(=O)OC(=O)O)c1)C(=O)c1ccc(-c2ccc(Cl)c(Cl)c2)cc1		>20 µM
CC1(C)C=C2C(CC[C@]3(C)[C@@H]2CC[C@@H]2[C@@]4(C)CC[C@H](OC(=O)CC(C)(C)C(=O)O)C(C)(C)[C@@H]4CC[C@]23C)[C@H](C(=O)O)C1		>300 µM
CCOC(=O)CCCCCOc1cccc(CN(C(=O)c2ccc(-c3cccc(C(F)(F)F)c3)cc2)C(C)C)c1		>20 µM
O=C(O)CC(O)CN=Cc1ccccc1O		>100 µM
CCOC(=O)CCCCCOc1cccc(CN(C(=O)c2ccc(-c3cccc(OC(F)(F)F)c3)cc2)C(C)C)c1		>20 µM
CC(C)(CC(=O)O[C@H]1CC[C@]2(C)[C@H]3CC[C@@H]4[C@@H]5C(CC[C@@]4(C)[C@]3(C)CC[C@H]2C1(C)C)C1CC(C)(C)[C@@H]5OC1=O)C(=O)O		>130 µM

3 of the rows above, restated:

CC(C)N(Cc1cccc(OCCCCCC(=O)OC(=O)O)c1)C(=O)c1ccc(-c2ccc(Cl)c(Cl)c2)cc1 ; value: >20 µM
O=C1/C(=C/c2ccc(-c3cc(C(F)(F)F)ccc3Cl)o2)SC(=S)N1Cc1ccc(Cl)cc1 ; read by: MTT ; value: 4.2 µM
O=C(O)CC(O)CN=Cc1ccccc1O ; value: >100 µM